## Replication capacity of HIV-1 mutants, Gag

Reference: Al-Mawsawi et al. 2014, doi:10.1186/s12977-014-0124-6.

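Seven fragments of pNL4-3 were mutated by error-prone PCR, and each virus pool was passaged in CEM T cells. The RC index is the frequency of a change after passage round 2 divided by its frequency in the plasmid library.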

Protein: Gag of HIV-1 NL4-3, numbered from its first residue. Gag is numbered as the whole polyprotein.
"Other frame" gives the effect on an overlapping gene as the source lists it; other overlaps (genes, RNA elements) are not shown.

A higher RC index is a better tolerated change; approximate classes are lethal up to 0.1, attenuated to 0.2, tolerated above. A change reads original residue, position, new residue. Input reads are the counts in the plasmid library.

mutation	base	region	other frame	input reads	RC index
V390A	T1958C	NC p7	none	195	0.355
L283P	T1637C	CA	none	667	0.0625
D213G	A1427G	CA	none	460	0.0794
Q246P	A1526C	CA	none	319	0.0545
Q127K	C1168A	MA	none	144	0.153
I223T	T1457C	CA	none	368	0.327
Y277F	A1619T	CA	none	191	0.0804
T81R	C1031G	MA	none	127	0.0759
Q108E	C1111G	MA	none	141	0.0228
M317L	A1738T	CA	none	180	0.0377
V84I	G1039A	MA	none	604	0.0532
E17G	A839G	MA	none	821	0.0579
Q65H	A984T	MA	none	360	0.196
G396C	G1975T	NC p7	none	125	0.126
R22W	A853T	MA	none	371	0.0534
V191A	T1361C	CA	none	237	0.0974
H194R	A1370G	CA	none	252	0.0282
P48T	C931A	MA	none	121	0.938
A309T	G1714A	CA	none	295	0.0844
Q116H	G1137C	MA	none	38	0.231
L215W	T1433G	CA	none	87	0.0494
S72A	T1003G	MA	none	41	0.157
K112E	A1123G	MA	none	454	0.0937
S148L	C1232T	CA	none	164	0.241
A220G	C1448G	CA	none	96	0.0448
F293Y	T1667A	CA	none	461	0.0540
Y296F	A1676T	CA	none	273	0.0663
E365Q	G1882C	p2	none	78	0.0357
S111T	G1121C	MA	none	278	0.0765
D284E	C1641G	CA	none	194	0.0344
S67T	T988A	MA	none	326	0.0394
P66S	C985T	MA	none	347	0.973
K359I	A1865T	CA	none	784	0.0231
V158A	T1262C	CA	none	405	0.0766
V35A	T893C	MA	none	143	0.198
L51I	T940A	MA	none	374	0.672
N124K	C1161G	MA	none	91	0.0241
T427I	C2069T	NC p7	none	625	0.0848
E177D	A1320T	CA	none	291	0.0488
W316R	T1735A	CA	none	210	0.0431
T190A	A1357G	CA	none	278	0.0319
A209P	G1414C	CA	none	164	0.236
N137I	A1199T	CA	none	144	0.0458
I104K	T1100A	MA	none	582	0.0166
G140R	G1207A	CA	none	238	0.138
R361K	G1871A	CA	none	175	0.343
I247K	T1529A	CA	none	1032	0.0400
P181L	C1331T	CA	none	237	0.0599
T251S	A1540T	CA	none	428	0.0461
R384S	G1941T	NC p7	none	96	0.164
A179D	C1325A	CA	none	140	0.101
R444S	G2121T	p1 / p6*	p6* A5S	162	0.105
H144Q	T1221A	CA	none	253	0.0347
A37E	C899A	MA	none	47	0.0862
A37G	C899G	MA	none	49	0.0827
N372H	A1903C	p2	none	191	0.00730
M142T	T1214C	CA	none	249	0.0176
A237P	G1498C	CA	none	162	0.0796
E107D	G1110C	MA	none	62	0.207
M171L	A1300C	CA	none	31	0.0573
V323F	G1756T	CA	none	119	0.114
Y29F	A875T	MA	none	146	0.0278
Q379L	A1925T	NC p7	none	286	0.0110
Q136L	A1196T	CA	none	225	0.0390
V362D	T1874A	CA	none	299	0.0699
I256T	T1556C	CA	none	210	0.125
V135L	G1192C	CA	none	68	0.0323
Q63H	G978T	MA	none	254	0.0638
A326E	C1766A	CA	none	87	0.0520
P166L	C1286T	CA	none	182	0.0976
R22S	G855C	MA	none	41	0.198
I34L	A889T	MA	none	355	0.108
P279H	C1625A	CA	none	370	0.142
S9R	C816A	MA	none	235	0.115
T97S	A1078T	MA	none	159	0.0202
V370E	T1898A	p2	none	504	0.0111
S129R	C1176G	MA	none	72	0.0305
G381S	G1930A	NC p7	none	201	0.133
G446E	G2126A	p1 / p6*	p6* silent	180	0.353

5 of these entries, quoted again:

mutation	base	region	other frame	input reads	RC index
V323F	G1756T	CA	none	119	0.114
R384S	G1941T	NC p7	none	96	0.164
L215W	T1433G	CA	none	87	0.0494
I256T	T1556C	CA	none	210	0.125
M142T	T1214C	CA	none	249	0.0176

Since each clone held several changes (about five per kb), neutral changes can read low. The authors read an index above 1 as above wild type (1.9% of all changes in the genome). Nucleotide positions follow pNL4-3.